Laboratory results from PubChem BioAssay AID1347131 (National Center for Advancing Translational Sciences (NCATS), 2019).
The list shows a part of the results. Results filed as inconclusive are left out. Active and inactive are the calls of the source. The call rests on the fitted dose curve; tested in HEK293 reporter line.

Assay: qHTS Assay for Foot and Mouth Disease Virus Antivirals: Primary Screen against the MLPCN compound library; further: nearly all actives have a fitted effect of over 55% in size
Conditions: FMDV antiviral cell-based qHTS; at 57.9 µM (top of the series)

With `CC(C)NC(=O)NP(=O)(Oc1ccccc1)Oc1ccccc1` as the molecule, how does the activity, negative = inhibition read?
The activity, negative = inhibition was inactive: 73.5%.

For `ClCCSc1nnc(-c2cccnc2)o1`, which activity, negative = inhibition is on record?
The activity, negative = inhibition was inactive: 0%.

For `CC(C)c1ccc(OP(=O)(Nc2ccccn2)Oc2ccccc2F)cc1` (configuration not stated), which activity, negative = inhibition is on record?
Its activity, negative = inhibition is inactive: 42.9%.

For `COC(=O)C1(C)COP(=O)(N2CCCCCC2)OC1` (configuration not stated), which activity, negative = inhibition is on record?
Its activity, negative = inhibition is inactive: -13.3%.

Which activity, negative = inhibition does the source give for `O=P1(N(CCCl)CCCl)Nc2ccccc2N1` here?
The activity, negative = inhibition was inactive: 7.98%.

Which activity, negative = inhibition does the source give for `O=P1(N(CCCl)CCCl)OCCCN1CCCl` (configuration not stated) here?
Its activity, negative = inhibition is inactive: -10.8%.

With `COc1cc(I)ccc1[As](=O)(O)O` as the molecule, how does the activity, negative = inhibition read?
Its activity, negative = inhibition is inactive: -4.16%.

For `COc1ccc2nc(NP(=O)(c3ccccc3)c3ccccc3)sc2c1`, which activity, negative = inhibition is on record?
Its activity, negative = inhibition is inactive: 39.4%.

For `Cc1c2c(nc3ccccc13)SC(C(Cl)Cl)C2` (configuration not stated), which activity, negative = inhibition is on record?
Its activity, negative = inhibition is inactive: 18.9%.

Which activity, negative = inhibition does the source give for `Cc1cc(=O)[nH]c(N[N+](=O)[O-])n1` here?
Its activity, negative = inhibition is inactive: -13.2%.

For `O=C(OC1CN2CCC1CC2)C12CC3CC(CC(C3)C1)C2` (configuration not stated), which activity, negative = inhibition is on record?
The activity, negative = inhibition was inactive: -5.04%.

With `O=[N+]([O-])c1cc(Oc2ccc([N+](=O)[O-])cc2C(F)(F)F)cc([N+](=O)[O-])c1` as the molecule, how does the activity, negative = inhibition read?
Its activity, negative = inhibition is inactive: -1.69%.

Which activity, negative = inhibition does the source give for `COc1ccc(N/C(=N/P(=O)(N2CCOCC2)N2CCOCC2)N2CCOCC2)cc1` here?
The activity, negative = inhibition was inactive: 1.68%.

Which activity, negative = inhibition does the source give for `O=C(O)C(=O)c1ccc(N(CCCl)CCCl)cc1` here?
Its activity, negative = inhibition is inactive: -4.18%.

For `O=C(COc1ccccc1)OC1CN2CCC1CC2` (configuration not stated), which activity, negative = inhibition is on record?
The activity, negative = inhibition was inactive: -15.6%.

Which activity, negative = inhibition does the source give for `COC(=O)C1(C)COP(=O)(N2CCCC2)OC1` (configuration not stated) here?
Its activity, negative = inhibition is inactive: -10.6%.

With `O=C(OC1CN2CCC1CC2)c1cccc([N+](=O)[O-])c1` (configuration not stated) as the molecule, how does the activity, negative = inhibition read?
The activity, negative = inhibition was inactive: -4.16%.

Which activity, negative = inhibition does the source give for `CCOC(=O)c1ccc(NC(=O)C(C)(CCl)SC)cc1` (configuration not stated) here?
The activity, negative = inhibition was inactive: 61.2%.

Which activity, negative = inhibition does the source give for `COP(=O)(OC)N1CC1c1ccccc1` (configuration not stated) here?
The activity, negative = inhibition was inactive: -18.5%.

For `Cc1cc(SC(NC(=O)c2ccccc2)C(Cl)(Cl)Cl)nc(C(C)C)n1` (configuration not stated), which activity, negative = inhibition is on record?
Its activity, negative = inhibition is inactive: -24.7%.

Which activity, negative = inhibition does the source give for `CCCCOc1ccc(C(=O)NCC2(N3CCCCC3)CCCCC2)cc1OC` here?
Its activity, negative = inhibition is inactive: -17%.

With `CCOC(=O)Nc1ccc([As](=O)(O)O)c(O)c1` as the molecule, how does the activity, negative = inhibition read?
The activity, negative = inhibition was inactive: -14.8%.

Which activity, negative = inhibition does the source give for `O=C(O)C(O)c1ccc(N(CCCl)CCCl)cc1` (configuration not stated) here?
Its activity, negative = inhibition is inactive: -0.245%.

For `CC1CCNP(=O)(N(CCCl)CCCl)O1` (configuration not stated), which activity, negative = inhibition is on record?
The activity, negative = inhibition was inactive: -12.8%.

Which activity, negative = inhibition does the source give for `O=P(Nc1ccccn1)(c1cccc2ccccc12)c1cccc2ccccc12` here?
Its activity, negative = inhibition is inactive: -10.7%.

For `Cc1cc(SC(NC=O)C(Cl)(Cl)Cl)ncn1` (configuration not stated), which activity, negative = inhibition is on record?
Its activity, negative = inhibition is inactive: -14.2%.

For `CCOC(=O)Nc1cccc([As](=O)(O)O)c1`, which activity, negative = inhibition is on record?
The activity, negative = inhibition was inactive: 0.501%.
